# Results of single-concentration screens

Mtb glucose medium: 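Phenotypic screen: M. tuberculosis growth, glucose 7H9 medium, 3 days; the read-out is not stated. Concentration: 500 µM. The record gives no direction; compounds that gave an IC50 in retests scored well above the rest, so higher reads as more growth inhibition. About 18,000 compounds were tested under these conditions; 7.9% (about 1,400) showed 50% or more at least once.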
Mtb cholesterol medium: 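Phenotypic screen: M. tuberculosis growth, cholesterol and DPPC medium, 4 days; the read-out is not stated. Concentration: 500 µM. Higher reads as more growth inhibition (inferred: compounds with an IC50 in retests scored well above the rest). About 18,000 compounds were tested under these conditions; 5% (about 900) showed 50% or more at least once.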

Values are the deposited “Percent Effect”, in %.
How 0% and 100% were set is not recorded. Most values in the screen are low, and negative values occur.
This is part of a subset picked to be rich in strong results.
A dash means the value is not listed here; it may have been measured.

| SMILES | Mtb glucose medium | Mtb cholesterol medium |
|---|---|---|
| `Cc1cc(C)cc(OCC(=O)N2CCOCC2)c1` | 55.68% | - |
| `Cn1cc(Cn2nc(-c3ccco3)oc2=O)cn1` | 63.07% | 52.83% |
| `CCC(CN)NC(=O)OC(C)(C)C` (centres unmarked) | 15.1% | - |
| `NS(=O)(=O)c1ccc(N2C(=O)C=CC2=O)cc1` | 22.62% | - |
| `O=C(c1cc(Cl)c[nH]1)N1CCOC(c2cccs2)C1` (centres unmarked) | 68.32% | 68.05% |
| `CC(C)(N)c1nc2c(c(=O)[nH]1)CCCCC2` | 7.51% | - |
| `CCc1nc(C(C)(C)N)[nH]c(=O)c1C` | - | -7.82% |
| `Cc1cc(C)n(C2CNC2)n1` | -6.521% | - |
| `Cn1ccnc1CN1CCNCC1` | - | 34.37% |
| `CN(Cc1cccc(F)c1)C(=O)c1cnccn1` | - | 54.91% |
| `CC(Sc1nnc(NCC(F)(F)F)s1)C(N)=O` (centres unmarked) | 13.8% | -8.578% |
| `Cc1nc(CN2[C@@H]3CC[C@H]2CNC(=O)C3)c[nH]1` | - | 4.825% |
| `COCCNCCNC(=O)c1ccc(C#N)cc1` | - | -3.841% |
| `CCCNc1nnc(SC2CCOC2)s1` (centres unmarked) | 80.43% | 94.06% |
| `Cc1cc(NC(=O)Cn2ncn(C)c2=O)cc(C)c1Br` | 0.2138% | - |
| `CC(C)(C)NC(=O)CN1CCN(CCC#N)CC1` | 5.698% | - |
| `Cc1noc(C(O)c2ccccc2)n1` (centres unmarked) | - | 8.6% |
| `Cc1ocnc1C(=O)Nc1ncccc1Cl` | - | -16.21% |
| `CC(=O)Nc1nc(C)c(S(=O)(=O)N2CCCC2)s1` | -0.2343% | - |
| `CSCc1cccc(CNC(=O)c2cc[nH]n2)c1` | 71.8% | 50.79% |
| `Cc1cccc(C[S+]([O-])CC(=O)NCC2CC2)c1` (centres unmarked) | 51.98% | 52.46% |
| `Cc1c[nH]c(CN(C)CC2(CO)CCOCC2)n1` | - | -8.166% |
| `CC(C)(C)C(O)CN` (centres unmarked) | 7.211% | - |
| `O=S(=O)(NC1CCCC1)C1CN(Cc2ccno2)C1` | - | 1.569% |
| `CC1(c2ccc(F)cc2)CNC(=O)O1` (centres unmarked) | - | 11.62% |
| `Cc1csc(CCNC(=O)C(C)n2cccn2)n1` (centres unmarked) | 18.39% | - |
| `COc1cccc(CN(C)C(=O)c2cscn2)n1` | 24.58% | - |
| `O=C(NCCOCc1ccc(Cl)cc1)C1CNCCO1` (centres unmarked) | 29.88% | 27.05% |
| `O=C(c1cnc(O)cn1)N1CCOC2(CCCC2)C1` | 6.888% | - |
| `CC(C(=O)N(C)c1ccccc1)N1CCC(O)CC1` (centres unmarked) | 9.57% | - |
| `CC(c1ccncc1)N(C)C(=O)c1c[nH]c(=O)c(Cl)c1` (centres unmarked) | - | 6.866% |
| `NCc1ccc(NC(=O)c2ccccc2O)cc1` | 53.06% | - |
| `Cn1cc(CNS(=O)(=O)Cc2ccccc2)cn1` | 12.58% | - |
| `COC(=O)CN(CCc1ccccc1)C(C)=O` | 5.455% | - |
| `CCS(=O)(=O)N1CCN(C(=O)c2ccccc2O)CC1` | - | -7.644% |
| `COCC(C)NC(=O)Cc1csc(-c2ccccn2)n1` (centres unmarked) | 13.14% | - |
| `Cn1ncc(C#N)c1N` | 12.72% | - |
| `O=C(NCCOCc1ccccc1)c1ccco1` | 60.73% | 51.04% |
| `CN(C)c1cc(CNS(=O)(=O)c2cccs2)ccn1` | 39.09% | - |
| `O=C(NCCN1CC=CC1)c1c(O)cc(F)cc1F` | 23.32% | 25.75% |
| `N#Cc1cccc(-c2csc(N)n2)c1` | - | 19.23% |
| `CCc1ccc(C(=O)NCc2ccccn2)o1` | 61.69% | 61.69% |
| `Cc1ccc(C2CC(=O)NC(SCC(N)=O)=C2C#N)o1` (centres unmarked) | - | 29% |
| `Cc1cccc(C(=O)Nc2nnn(C)n2)c1` | 5.56% | -4.601% |
| `COCCN(c1ccncc1)S(=O)(=O)c1cccs1` | 5.186% | - |
| `CC(=O)NCCNCc1cc(O)c2cc(F)ccc2n1` | 5.967% | - |
| `CCN1CCC(NC(=O)c2c(F)cccc2F)CC1` | 13.7% | - |
| `COc1ccc(C(C)NCCO)c(Br)c1` (centres unmarked) | - | -2.297% |

For reference, 4 entries once more:

SMILES,Mtb glucose medium,Mtb cholesterol medium
Cc1c[nH]c(CN(C)CC2(CO)CCOCC2)n1,-,-8.166%
COCCNCCNC(=O)c1ccc(C#N)cc1,-,-3.841%
Cc1csc(CCNC(=O)C(C)n2cccn2)n1 (centres unmarked),18.39%,-
CCc1nc(C(C)(C)N)[nH]c(=O)c1C,-,-7.82%

The values are deposited in ChEMBL (CHEMBL3988442, “University of Dundee, Small-Polar-MMV Screening Library” (2021)).